Pooled drug test results. Numbers come from NIAID ChemDB, via PubChem.

Shared fields: cytotoxicity tests; cell line: CEM; measure: CC50

Neighbouring rows are from separate reports. CCn is the concentration with n% toxicity to the cells.

Cc1ccc(S(=O)(=O)O)cc1.N/C(=N\N=C\c1ccccc1)NO ; value: 35 µg/mL
O=C(CSC1=NNC2(C(=O)N1)c1ccccc1-c1ccccc12)NC(=S)Nc1ccccc1 ; value: 35 µM
CCCCCCCCCCCCCCCC=C(c1cc(Cl)c(O)c(C(=O)O)c1)c1cc(Cl)c(O)c(C(=O)O)c1 ; value: >35 µM
Cc1cc(C)c(Nc2ccnc(Nc3ccc(C#N)cc3)n2)c(C)c1 ; value: 1.367 µM
Cn1cc(NC(=O)c2cc(NC(=O)CCCCCC(=O)Nc3cc(C(=O)Nc4cc(C(=O)NCCC(N)=[NH2+])n(C)c4)n(C)c3)cn2C)cc1C(=O)NCCC(N)=[NH2+] ; value: 64.8 µM
CC(=O)C(CCCCCCn1c(=O)c(C)cn([C@@H]2O[C@H](CO[Si](C)(C)C(C)(C)C)C3(OS(=O)(=O)C=C3N)[C@H]2O[Si](C)(C)C(C)(C)C)c1=O)C(C)=O ; value: 160 µM
CO[C@H]1[C@H]2O[Si](C(C)C)(C(C)C)O[Si](C(C)C)(C(C)C)OC[C@@H]2O[C@@H]1c1ccccc1 ; value: 20 µg/mL
CC(C)C[C@H](NC(=O)c1ccccc1SSc1ccccc1C(=O)N[C@@H](CC(C)C)C(=O)OCc1ccccc1)C(=O)OCc1ccccc1 ; value: 73 µM
Cn1cc(NC(=O)[C@H]2CCC(N)=N2)cc1C(=O)NCCC(=N)N ; value: >127 µM
COCCOC(=O)c1cc(NC(=O)C2=C(C)OCCS2)ccc1Cl ; value: >100 µg/mL
CCCCCC(NC(=O)c1ccccc1SSc1ccccc1C(=O)NC(CCCCC)C(=O)O)C(=O)O ; value: 62.7 µM
[C-]#[N+][C@H]1C[C@H](n2cc(C)c(=O)[nH]c2=O)O[C@@H]1CO ; value: 8 µM
CC(=O)C(CCCCCCCn1c(=O)c(C)cn([C@@H]2O[C@H](CO[Si](C)(C)C(C)(C)C)C3(OS(=O)(=O)C=C3N)[C@H]2O[Si](C)(C)C(C)(C)C)c1=O)C(C)=O ; value: >250 µM
Cn1cc(NC(=O)c2cc(NC(=O)[C@H]3CCC(N)=N3)c[nH]2)cc1C(=O)NCCC(=N)N ; value: 750 µM
NS(=O)(=O)c1ccc(NC(=O)c2ccccc2Sc2ccccc2C(=O)Nc2ccc(S(N)(=O)=O)cc2)cc1 ; value: >100 µM
CCc1c(Sc2cc(C)cc(C)c2)n(COCCO)c(=O)[nH]c1=O ; value: >100 µM
O=c1[nH]c2ccc(Cc3cccc(F)c3)cc2s1 ; value: 6.3 µg/mL
O=C1N=C2SC=C(NC(=S)Nc3ccccc3)N2NC12c1ccccc1-c1ccccc12 ; value: 66 µM
O=Cc1ccc(O)c(O)c1 ; value: <3 µg/mL
CC(=O)N[C@@H]1OC(CO[Si](C)(C)C(C)(C)C)C2(OS(=O)(=O)C=C2N)C1O[Si](C)(C)C(C)(C)C ; value: 8 µM
CCc1c(Sc2ccccc2)n(COCc2ccccc2)c(=O)[nH]c1=O ; value: 19.9 µM
Cc1cn([C@@H]2O[C@H](CO[Si](C)(C)C(C)(C)C)C3(OS(=O)(=O)C=C3N)[C@H]2O[Si](C)(C)C(C)(C)C)c(=O)n(CCCCCCO/C(=C/C(=O)c2ccccc2)c2ccccc2)c1=O ; value: >100 µM
CCCOC(=O)c1cc(NC(=O)C2=C(C)OCCS2)ccc1Cl ; value: >100 µg/mL
Cc1cn([C@@H]2O[C@H](CO)C(F)(F)C2(F)F)c(=O)[nH]c1=O ; value: >100 µM
CC1=C(C(=O)N(C)c2ccc(Cl)c(C(=O)OC(C)C)c2)SCCO1 ; value: 26 µg/mL
CCCCCCCCCC=C(c1cc(Br)cc(C(=O)O)c1OC)c1cc(Br)cc(C(=O)O)c1OC ; value: 68.3 µM
CC(C)(C)[Si](C)(C)OCC1OC(N=[N+]=[N-])C(O[Si](C)(C)C(C)(C)C)C12OS(=O)(=O)C=C2N ; value: 200 µM
Nc1nc(=O)n([C@H]2CC[C@@H](CO)O2)cc1F ; value: 2 µM
CCCCC(=O)c1ccc2c(c1)sc(=O)n2CC=O ; value: 4.1 µg/mL
NC(=O)c1ccc(NC(=O)c2ccccc2SSc2ccccc2C(=O)Nc2ccc(C(N)=O)cc2)cc1 ; value: >100 µM
CC1=C(C(=O)Nc2ccc(Cl)c(C(=O)OC3CCCCC3)c2)SCCO1 ; value: 11 µg/mL
CCCCCCCCCCCCCCCCCCCCCCCCCCCCCC=C(c1cc(Cl)c(O)c(C(=O)O)c1)c1cc(Cl)c(O)c(C(=O)O)c1 ; value: >220 µM
NS(=O)(=O)c1ccc(NC(=O)c2ccccc2O)cc1 ; value: >100 µM
Nc1nc(N)c2ncn([C@@H]3O[C@H](CO)C[C@@H]3F)c2n1 ; value: >93 µM
CC(C)OC(=O)[C@H](C)NP(=O)(OC[C@H]1O[C@@H](n2ccc(N)nc2=O)C(F)(F)C1(F)F)Oc1ccccc1 ; value: >100 µM
CC(C)C(NC(=O)c1ccccc1SSc1ccccc1C(=O)NC(C(=O)O)C(C)C)C(=O)O ; value: >100 µM
COc1ccc(/C=N/N=C(\N)NO)c(Cl)c1O.Cc1ccc(S(=O)(=O)O)cc1 ; value: 19 µg/mL
COP(=O)(OC)OP(=O)(OC)OP(=O)(OC)OC[C@H]1O[C@@H](n2cc(F)c3c(N)ncnc32)[C@](C)(F)[C@@H]1O ; value: >10 µM
O=C(Nc1ccc(Br)cc1)c1ccccc1SSc1ccccc1C(=O)Nc1ccc(Br)cc1 ; value: 40 µM
COC(=O)N[C@H]1C[C@H](n2cc(C)c(=O)[nH]c2=O)O[C@@H]1CO ; value: 17 µM
CCCCCCCCCC=C(c1cc(Br)c(O)c(C(=O)O)c1)c1cc(Br)c(O)c(C(=O)O)c1 ; value: >191 µM
CC(CC(=O)O)NC(=O)c1ccccc1SSc1ccccc1C(=O)NC(C)CC(=O)O ; value: 59.5 µM
Cc1cn([C@H]2C[C@H](F)[C@@H](CO)O2)c(=O)n(CCF)c1=O ; value: >500 µg/mL
O=C(Nc1cc(C(F)(F)F)cc(C(F)(F)F)c1)c1ccccc1SSc1ccccc1C(=O)Nc1cc(C(F)(F)F)cc(C(F)(F)F)c1 ; value: 3.6 µM
CC(C)OC(=O)[C@H](C)NP(=O)(OC[C@H]1O[C@@H](n2ccc(=O)[nH]c2=O)C(F)(F)C1(F)F)Oc1ccccc1 ; value: >100 µM
CC(=O)/C=C(\C)OCCCCCCCCn1c(=O)c(C)cn([C@@H]2O[C@H](CO[Si](C)(C)C(C)(C)C)C3(OS(=O)(=O)C=C3N)[C@H]2O[Si](C)(C)C(C)(C)C)c1=O ; value: 49 µM
OC[C@H]1O[C@@H](c2ccccc2)[C@H](O)[C@@H]1O ; value: >200 µg/mL
Cn1c2ccccc2c(=O)c2c(O)cccc21 ; value: 5.6 µg/mL
Cc1cn([C@@H]2O[C@H](CO)[C@@H](O)[C@@H]2O)c(=O)n(C)c1=O ; value: >500 µg/mL
CCCCCCCCCC=C(c1cc(Cl)c(O)c(C(=O)O)c1)c1cc(Cl)c(O)c(C(=O)O)c1 ; value: >49.1 µM
C=CCNC(=O)NC(=O)CSC1=NNC2(C(=O)N1)c1ccccc1-c1ccccc12 ; value: 31 µM
CCc1c(Sc2cc(C)cc(C)c2)n(COCCO)c(=S)[nH]c1=O ; value: >100 µM
CCC(C)C(NC(=O)c1ccccc1SSc1ccccc1C(=O)NC(C(=O)O)C(C)CC)C(=O)O ; value: >120 µM
COc1c(Cl)cc(C(=CCC[C@H]2CC[C@@]3(C)[C@@H](CC[C@@H]4[C@@H]3CC[C@]3(C)[C@@H]([C@H](C)CCCC(C)C)CC[C@@H]43)C2)c2cc(Cl)c(OC)c(C(=O)O)c2)cc1C(=O)O ; value: >300 µM
O=C(c1cccc(Cl)c1)c1ccc2[nH]c(=O)oc2c1 ; value: 16 µg/mL
Cc1cn([C@H]2C[C@H](NC#N)[C@@H](CO)O2)c(=O)[nH]c1=O ; value: 75 µM
OC[C@H]1O[C@H](c2cc(Cl)c(F)cc2F)C[C@@H]1O ; value: >250 µM
COP(=O)(OC)OP(=O)(OC)OP(=O)(OC)OC[C@H]1O[C@@H](n2ccc3c(N)ncnc32)[C@](C)(F)[C@@H]1O ; value: >10 µM
CCSCC1=C(C(=O)Nc2ccc(Cl)c(C(=O)OC(C)C)c2)SCCO1 ; value: 28 µg/mL
O=S(=O)(O)c1cc(N=Nc2cc(S(=O)(=O)O)c3ccccc3c2O)ccc1/C=C/c1ccc(N=Nc2cc(S(=O)(=O)O)c3ccccc3c2O)cc1S(=O)(=O)O ; value: >11.76 µM
CCCCC(=O)c1ccc2c(c1)sc(=O)n2CCN1CCCCC1 ; value: 10 µg/mL
Nc1ccn([C@@H]2CC[C@H](CO)O2)c(=O)n1 ; value: 70 µM
Cc1cn(C2OC(CO[Si](C)(C)C(C)(C)C)C3(OS(=O)(=O)C=C3N)C2O[Si](C)(C)C(C)(C)C)c(=O)n(CC(=O)N(CCCl)CCCl)c1=O ; value: 86 µM
CC(C)(C)c1ccccc1Sc1c(O)cc(-c2ccc(OCc3cccnc3)cc2)oc1=O ; value: 16.5 µM
COC(=O)c1cc(C(=CCCBr)c2cc(Cl)c(OC)c(C(=O)OC)c2)cc(Cl)c1OC ; value: 15.2 µM
Cc1cn([C@H]2C[C@H](NC(N)=O)[C@@H](CO)O2)c(=O)[nH]c1=O ; value: 7 µM
CC(=O)NS(=O)(=O)c1ccc(NC(=O)c2ccccc2SSc2ccccc2C(=O)Nc2ccc(S(=O)(=O)NC(C)=O)cc2)cc1 ; value: 42 µM
CCc1c(Sc2cc(C)cc(C)c2)n(COCc2ccccc2)c(=O)[nH]c1=O ; value: >100 µM
Cc1cn(C2OC(CO[Si](C)(C)C(C)(C)C)C3(OS(=O)(=O)C=C3N)C2O[Si](C)(C)C(C)(C)C)c(=O)n(CCCNC(=O)c2ccc(C(=O)c3ccccc3)cc2)c1=O ; value: ≥250 µM
CC(C)(C)[Si](C)(C)OCC1O[C@@H](NC(=O)NC(=O)c2ccccc2)C(O[Si](C)(C)C(C)(C)C)C12OS(=O)(=O)C=C2N ; value: 10 µM
CC(=O)OCC1OC(SC2C(SC(C)=O)OC(COC(C)=O)C(OC(C)=O)C2OC(C)=O)C(OC(C)=O)C(OC(C)=O)C1OC(C)=O ; value: >100 µg/mL
CC(C)OC(=O)[C@H](C)NP(=O)(OC[C@H]1O[C@@H](n2cnc3c(N)ncnc32)C(F)(F)C1(F)F)Oc1ccccc1 ; value: 14 µM
O=C(O)c1ccc(NC(=O)c2ccccc2SSc2ccccc2C(=O)Nc2ccc(C(=O)O)cc2)cc1 ; value: 28 µM
COc1cc(/C=N/N=C(\N)NO)ccc1O.Cc1ccc(S(=O)(=O)O)cc1 ; value: 132 µg/mL
Nc1nc2c(ncn2[C@@H]2O[C@H](CO)C(F)(F)C2(F)F)c(=O)[nH]1 ; value: >100 µM
Cc1ccc(C(=O)Nc2ccc(S(=O)(=O)O)c3cc(S(=O)(=O)O)cc(S(=O)(=O)O)c23)cc1NC(=O)c1cccc(NC(=O)Nc2cccc(C(=O)Nc3cc(C(=O)Nc4ccc(S(=O)(=O)O)c5cc(S(=O)(=O)O)cc(S(=O)(=O)O)c45)ccc3C)c2)c1 ; value: >174 µM
NC1=NNC2(C(N)=N1)c1ccccc1-c1ccccc12 ; value: 81 µM
Nc1nc2c(ncn2[C@H]2CC[C@@H](CO)O2)c(=O)[nH]1 ; value: >10 µM
C=CCNC(=O)NC1=CSC2=NC(=O)C3(NN12)c1ccccc1-c1ccccc13 ; value: 50 µM
CCCCCC=C(c1cc(Cl)c(OC)c(C(=O)OC)c1)c1cc(Cl)c(OC)c(C(=O)OC)c1 ; value: >28.2 µM
N/C(=N\N=C\c1cccc(F)c1)NO ; value: 23 µg/mL
Cc1cn(C2OC(CO[Si](C)(C)C(C)(C)C)C3(OS(=O)(=O)C=C3N)C2O[Si](C)(C)C(C)(C)C)c(=O)n(CCCNC(=O)c2ccc(N=[N+]=[N-])cc2O)c1=O ; value: ≥250 µM
CC1=C(C(=O)Nc2ccc(Cl)c(C(=O)OC3CCCC3)c2)SCCO1 ; value: 6.4 µg/mL